Compound potency records, mixed from different reports. Data source: NIAID ChemDB in PubChem.

All rows: tests in culture; species: Mycobacterium fortuitum

MIC50, MIC90 and the like: level of inhibition, or share of isolates inhibited. Rows are shuffled and stem from different studies.

Clc1ccc2c(c1)nc1cc(Nc3ccccc3)c(=NC3CCCCC3)cc-1n2-c1ccccc1 ; strain: 6842 ATCC ; read-out: MIC ; value: 10 µg/mL
CN(C)C(=O)CC(CSc1ccccc1)Nc1c(C(=O)N/N=C/c2ccccc2F)cnc2cc(F)ccc12 ; read by: resazurin ; strain: ATCC 19542 ; read-out: MIC ; value: 5 µg/mL
CC1CN(c2cc3c(cc2F)c(=O)c(C(=O)O)cn3-c2ccc(F)cc2F)CCN1 ; strain: 25 isolates ; read-out: MIC90 ; value: 8 µg/mL
CCn1cc(C(=O)O)c(=O)c2cc(F)c(-c3csc(N)n3)cc21 ; read-out: MIC ; value: 3.12 µg/mL
CO[C@@]1(NC(=O)Cc2ccccc2)C(=O)N2C(C(=O)[O-])=C(CSc3nnc(C)s3)CSC21 ; strain: 1263 ; read-out: MIC ; value: 50 µg/mL
Cc1noc(N)c1C(=O)N/N=C/c1ccc(O)cc1 ; read by: resazurin ; strain: PCM 672 ; read-out: MIC90 ; value: >100 µg/mL
C[C@H]1C[C@H](N)CN1c1cc2c(cc1F)c(=O)c(C(=O)O)cn2-c1ccc(F)cc1F ; strain: ATCC 6841 ; read-out: MBC ; value: 8 µg/mL
COc1c(N2CCNC(C)C2)c(F)cc2c(=O)c(C(=O)O)cn(C3CC3)c12 ; strain: 20 strains ; read-out: MIC90 ; value: 0.78 µg/mL
CO[C@@]1(NC(=O)CSCC#N)C(=O)N2C(C(=O)O)=C(CSc3nnnn3C)CS[C@@H]21 ; strain: AO5 ; read-out: MIC ; value: 6.25 µg/mL
COc1ccc(/C=N/n2c(C)nc3onc(C)c3c2=O)cc1 ; read by: resazurin ; strain: PCM 672 ; read-out: MIC90 ; value: >100 µg/mL
CC1COc2c(N3CCN(C)CC3)c(F)cc3c(=O)c(C(=O)O)cn1c23 ; strain: 25 isolates ; read-out: MIC90 ; value: >4 µg/mL
NCC[C@H](O)C(=O)N[C@@H]1C[C@H](N)[C@@H](O[C@H]2O[C@H](CN)[C@@H](O)[C@H](O)[C@H]2O)[C@H](O)[C@H]1O[C@H]1O[C@H](CO)[C@@H](O)[C@H](N)[C@H]1O ; strain: ATCC 6841 ; read-out: MIC ; value: 8 µg/mL
CCn1cc(C(=O)O)c(=O)c2ccc(-c3csc(N(C)C)n3)cc21 ; read-out: MIC ; value: 12.5 µg/mL
CN(C)C(=O)CC(CSc1ccccc1)Nc1c(C(=O)N/N=C/c2ccc(Br)s2)cnc2cc(F)ccc12 ; read by: resazurin ; strain: ATCC 19542 ; read-out: MIC ; value: >100 µg/mL
NC[C@H]1O[C@H](O[C@H]2[C@H](O)[C@@H](O[C@H]3O[C@H](CO)[C@@H](O)[C@H](N)[C@H]3O)[C@H](N)C[C@@H]2N)[C@H](O)[C@@H](O)[C@@H]1O ; strain: ATCC 6841 ; read-out: MBC ; value: >64 µg/mL
CC[C@H]1OC(=O)[C@H](C)[C@@H](O[C@H]2C[C@@](C)(OC)[C@@H](O)[C@H](C)O2)[C@H](C)[C@@H](O[C@@H]2O[C@H](C)C[C@H](N(C)C)[C@H]2O)[C@](C)(O)C[C@@H](C)C(=O)[C@H](C)[C@@H](O)[C@]1(C)O ; strain: ATCC 6841 ; read-out: MBC ; value: >8 µg/mL
CN(C)C(=O)CC(CSc1ccccc1)Nc1c(C(=O)N/N=C/c2ccc(OC(F)(F)F)cc2)cnc2cccc(C(F)(F)F)c12 ; read by: resazurin ; strain: ATCC 19542 ; read-out: MIC ; value: 5 µg/mL
CO[C@@]1(NC(=O)C(C(=O)O)c2ccc(O)cc2)C(=O)N2C(C(=O)O)=C(CSc3nnnn3C)CO[C@@H]21 ; strain: 1048 ; read-out: MIC ; value: 50 µg/mL
Cc1noc2ncn(/N=C/c3ccc(O)cc3)c(=O)c12 ; read by: resazurin ; strain: PCM 672 ; read-out: MIC90 ; value: >100 µg/mL
CN[C@@H]1[C@H](O[C@H]2[C@H](O[C@H]3[C@H](O)[C@@H](O)[C@H](N=C(N)N)[C@@H](O)[C@@H]3N=C(N)N)O[C@@H](C)[C@]2(O)C=O)O[C@@H](CO)[C@H](O)[C@H]1O ; strain: 31 isolates ; read-out: MIC90 ; value: >64 µg/mL
Cc1noc2nc(C)n(/N=C/c3ccc([N+](=O)[O-])cc3)c(=O)c12 ; read by: resazurin ; strain: PCM 672 ; read-out: MIC90 ; value: 62.5 µg/mL
CO[C@@]1(NC(=O)CCCC(N)C(=O)O)C(=O)N2C(C(=O)O)=C(COC(N)=O)CSC21 ; strain: 4-May ; read-out: MIC ; value: >100 µg/mL
C[C@@H]1CN(c2c(F)c(N)c3c(=O)c(C(=O)O)cn(C4CC4)c3c2F)C[C@H](C)N1 ; strain: ATCC 6841 ; read-out: MIC ; value: 0.5 µg/mL
COc1ccc(/C=N/NC(=O)c2cnc3cccc(C(F)(F)F)c3c2NC(CSc2ccccc2)CC(=O)N(C)C)cc1O ; read by: resazurin ; strain: ATCC 19542 ; read-out: MIC ; value: 10 µg/mL
CO[C@@]1(NC(=O)Cc2ccccc2)C(=O)N2C(C(=O)O)=C(COC(C)=O)CSC21 ; strain: AO5 ; read-out: MIC ; value: 50 µg/mL
CCn1cc(C(=O)O)c(=O)c2ccc(-c3csc(N4CCCCC4)n3)cc21 ; read-out: MIC ; value: 3.12 µg/mL
CCc1cc(C(N)=S)ccn1 ; strain: 18 strains ; read-out: MIC50 ; value: 32 µg/mL
Cc1noc2nc(C)n(/N=C/c3ccc(Cl)c(Cl)c3)c(=O)c12 ; read by: resazurin ; strain: PCM 672 ; read-out: MIC90 ; value: >100 µg/mL
CCn1cc(C(=O)O)c(=O)c2ccc(C3CSC(C)N3C)cc21 ; read-out: MIC ; value: >100 µg/mL